The values below come from paper PMC10147936, “Dietary factors potentially impacting thiaminase I-mediated thiamine deficiency” (Scientific Reports, 2023).

For one data set, the system named is Cc1ncc(CO)c(CO)c1O. Briefly: purified protein. The following applies: pH 6.5; 37.0 °C.
Another data set deals with O=C(O)c1cccnc1. The data set can be described thus: purified protein. The settings on record: pH 6.5; 37.0 °C.

One may read the Km as the concentration of substrate that gives half-maximal velocity. As for “thiaminase I from C. botulinum (BcmE) (Clostridium botulinum A str. Hall)”, the Km with Cc1ncc(CO)c(CO)c1O is 14.6 µM; in the data set with O=C(O)c1cccnc1 it was 84.2 µM.
